Pooled drug test results. Numbers come from NIAID ChemDB, via PubChem.

Shared fields: growth or infection tests; species: Hepatitis C virus; cell line: Huh7; measure: inhibition

Inhibition is in % at the dose shown (toxicity tests: loss of growth or viability). An empty or dashed field is not shown. Neighbouring rows are from separate reports.

smiles | strain or isolate | read by | setting | tested at | value
O=C(Nc1cccc(-c2ccco2)c1)C1CCN(Cc2nc3ccc(F)cc3[nH]2)CC1 | JFH-1 | PCR |  | 15 µM | <40%
Cc1ccc2nc(Nc3ccc([N+](=O)[O-])cc3)sc2c1 |  | luciferase |  | 5 µM | 12%
O=C1CSC(=Nc2nnc(-c3ccc(Cl)cc3Cl)s2)N1 | GT1b | luciferase |  | 50 µM | 0%
COc1cc(Cc2cnc(/N=C3\C(=O)N(CN4CCN(C)CC4)c4ccc(F)cc43)nc2N)cc(OC)c1OC |  |  |  | 50 µg/mL | 96%
Cc1ccc2nc(Nc3cccc([N+](=O)[O-])c3)sc2c1 |  | luciferase |  | 5 µM | 32%
O=C1NC(=Nc2nnc(-c3ccccc3Cl)s2)SC1=Cc1cccc(F)c1 | GT1b | luciferase |  | 50 µM | 89%
C=C(C)[C@@H]1CC[C@]2(C(=O)O)CC[C@]3(C)[C@H](CC[C@@H]4[C@@]5(C)CC[C@H](O)C(C)(C)[C@@H]5CC[C@]43C)[C@@H]12 |  | luciferase / entry |  | 1 µM | 4.2%
COc1cc(Cc2cnc(/N=C3\C(=O)N(CN4CCN(c5cccc(C(F)(F)F)c5)CC4)c4ccc(F)cc43)nc2N)cc(OC)c1OC |  |  |  | 50 µg/mL | 88%
CC1(C)CC[C@@]2(C(=O)NCc3cn(CCCO)nn3)C(C1)C1=CCC3[C@@]4(C)CC[C@H](O)C(C)(C)C4CC[C@@]3(C)[C@]1(C)C[C@H]2O |  | luciferase / entry |  | 5 µM | 67.1%
COc1cccc(-c2ccccc2NC(=O)C2CCN(CC(C)(C)C)CC2)c1 | JFH-1 | PCR |  | 15 µM | ≥40%
Cc1ccc2nc(Nc3cccc(Cl)c3)sc2c1 |  | luciferase |  | 5 µM | 14%
O=C1NC(=Nc2nnc(-c3c(Cl)cccc3Cl)s2)SC1=Cc1cccc(F)c1 | GT1b | luciferase |  | 50 µM | 97%
CC1(C)CC[C@@]2(C(=O)NCc3cn(Cc4ccccc4Cn4cc(CNC(=O)[C@]56CCC(C)(C)CC5C5=CCC7[C@@]8(C)CC[C@H](O)C(C)(C)C8CC[C@@]7(C)[C@]5(C)C[C@H]6O)nn4)nn3)C(C1)C1=CCC3[C@@]4(C)CC[C@H](O)C(C)(C)C4CC[C@@]3(C)[C@]1(C)C[C@H]2O |  | luciferase / entry |  | 1 µM | 51.5%
O=C1NC(=Nc2nnc(-c3c(F)cccc3Cl)s2)SC1=Cc1cccc(F)c1 | GT1b | luciferase |  | 50 µM | 97%
COc1cc(Cc2cnc(/N=C3\C(=O)N(CN4CCN(c5ccccc5)CC4)c4ccc(F)cc43)nc2N)cc(OC)c1OC |  |  |  | 50 µg/mL | 98%
C[C@H]1[C@H](C)CC[C@]2(C(=O)O)CC[C@]3(C)C(=CC[C@@H]4[C@@]5(C)CC[C@H](O)C(C)(C)[C@@H]5CC[C@]43C)[C@H]12 |  | luciferase / entry | pseudotyped | 1 µM | 2.8%
CC(C)Cc1cc(CN2CCC(C(=O)Nc3ccc(Oc4ccccc4F)cc3)CC2)[nH]n1 | JFH-1 | PCR |  | 15 µM | ≥40%
O=C1CSC(=Nc2nnc(-c3c(Cl)cccc3Cl)s2)N1 | GT1b | luciferase |  | 50 µM | 40%
COc1ccc(Nc2nc3ccc(C)cc3s2)c(OC)c1 |  | luciferase |  | 20 µM | 21%
Cc1nnc(-c2cccc(NC(=O)C3CCN(C(=O)c4ccco4)CC3)c2)s1 | JFH-1 | PCR |  | 15 µM | ≥40%
CC1(C)CC[C@@]2(C(=O)NCc3cn(CCCn4cc(CNC(=O)[C@]56CCC(C)(C)CC5C5=CCC7[C@@]8(C)CC[C@H](O)C(C)(C)C8CC[C@@]7(C)[C@]5(C)C[C@H]6O)nn4)nn3)C(C1)C1=CCC3[C@@]4(C)CC[C@H](O)C(C)(C)C4CC[C@@]3(C)[C@]1(C)C[C@H]2O |  | luciferase / entry |  | 5 µM | 89%
CSCCCN1CCC(C(=O)Nc2cccc(-c3cc4ccccc4[nH]3)c2)CC1 | JFH-1 | PCR |  | 15 µM | <40%
CC1(C)CC[C@@]2(C(=O)NCc3cn(CC(Cn4cc(CNC(=O)[C@]56CCC(C)(C)CC5C5=CCC7[C@@]8(C)CC[C@H](O)C(C)(C)C8CC[C@@]7(C)[C@]5(C)C[C@H]6O)nn4)(Cn4cc(CNC(=O)[C@]56CCC(C)(C)CC5C5=CCC7[C@@]8(C)CC[C@H](O)C(C)(C)C8CC[C@@]7(C)[C@]5(C)C[C@H]6O)nn4)Cn4cc[n+](CNC(=O)[C@]56CCC(C)(C)CC5C5=CCC7[C@@]8(C)CC[C@H](O)C(C)(C)C8CC[C@@]7(C)[C@]5(C)C[C@H]6O)n4)nn3)C(C1)C1=CCC3[C@@]4(C)CC[C@H](O)C(C)(C)C4CC[C@@]3(C)[C@]1(C)C[C@H]2O |  | luciferase / entry |  | 1 µM | 22.8%
COc1cccc(CN2CCC(C(=O)Nc3cccc(-c4cccc(Cl)c4)c3)CC2)c1O | JFH-1 | PCR |  | 5 µM | ≥40%
CC1(C)CC[C@@]2(C(=O)NCc3cn(CCCCn4cc(CNC(=O)[C@]56CCC(C)(C)CC5C5=CCC7[C@@]8(C)CC[C@H](O)C(C)(C)C8CC[C@@]7(C)[C@]5(C)C[C@H]6O)nn4)nn3)C(C1)C1=CCC3[C@@]4(C)CC[C@H](O)C(C)(C)C4CC[C@@]3(C)[C@]1(C)C[C@H]2O |  | luciferase / entry |  | 5 µM | 69.9%
COc1cccc(-c2ccccc2NC(=O)C2CCN(Cc3ccccc3OC)CC2)c1 | JFH-1 | PCR |  | 5 µM | ≥40%
CCn1cc(C(=O)O)c(=O)c2cc(F)c(N3CCN(CN4C(=O)/C(=N\c5ncc(Cc6cc(OC)c(OC)c(OC)c6)c(N)n5)c5cc(F)ccc54)CC3)cc21 |  |  |  | 50 µg/mL | 95%

The last 3 rows once more:

smiles | strain or isolate | read by | setting | tested at | value
CC1(C)CC[C@@]2(C(=O)NCc3cn(CCCCn4cc(CNC(=O)[C@]56CCC(C)(C)CC5C5=CCC7[C@@]8(C)CC[C@H](O)C(C)(C)C8CC[C@@]7(C)[C@]5(C)C[C@H]6O)nn4)nn3)C(C1)C1=CCC3[C@@]4(C)CC[C@H](O)C(C)(C)C4CC[C@@]3(C)[C@]1(C)C[C@H]2O |  | luciferase / entry |  | 5 µM | 69.9%
COc1cccc(-c2ccccc2NC(=O)C2CCN(Cc3ccccc3OC)CC2)c1 | JFH-1 | PCR |  | 5 µM | ≥40%
CCn1cc(C(=O)O)c(=O)c2cc(F)c(N3CCN(CN4C(=O)/C(=N\c5ncc(Cc6cc(OC)c(OC)c(OC)c6)c(N)n5)c5cc(F)ccc54)CC3)cc21 |  |  |  | 50 µg/mL | 95%